One sequence from article PMC3464209 can be followed below.

The chains behind the UniProt entries cited, without tags or fusion partners. Where a name states a change or a piece, a line headed by the entry shows the natural chain unless it says otherwise.
UniProt Q2FWL2: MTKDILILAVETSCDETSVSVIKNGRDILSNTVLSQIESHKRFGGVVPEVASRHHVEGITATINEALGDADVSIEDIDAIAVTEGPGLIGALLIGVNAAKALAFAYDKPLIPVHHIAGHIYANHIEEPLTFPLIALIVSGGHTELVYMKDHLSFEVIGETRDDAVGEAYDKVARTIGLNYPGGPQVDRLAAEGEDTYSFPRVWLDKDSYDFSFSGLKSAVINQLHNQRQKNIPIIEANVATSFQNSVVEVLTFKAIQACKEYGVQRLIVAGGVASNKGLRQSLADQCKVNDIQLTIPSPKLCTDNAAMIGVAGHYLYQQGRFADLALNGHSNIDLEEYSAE

For at least one entry, the source does not settle the construct or the ends of the probe. Negatives hold for the conditions tested.

In the series the target is Gcp (UniProt Q2FWL2). Put plainly: EMSA. The conditions noted are these: 2 mM Mg2+, poly-[d(I-C)] 1 ug, various Gcp concentrations; 25 mM NaH2PO4 pH 8.0, 50 mM NaCl, 2 mM MgCl2, 1 mM DTT, 10% glycerol, 0.1 mM EDTA, 1 ug poly-[d(I-C)], 0.2 pmol DIG-DNA in 20 ul, room temperature 25 min; recombinant protein; protein details: His-tag; probe letters rebuilt from the primers and the genome.

With “ATCCATTGTTCAATCGTATCTAACTTTATATTTAACCTTTATATTGTAACAAATTTCAACTTAAATTTCTTATCTTTGAAACAGATTATCTATTCAAAGTTAATTGTAAGAAAATTTAAAATATTTGTTGACATACTAAAGCAGATATAGTAAATTAAATTTATCAAATTTTTAGACAATTCTAACTATTAAAGTGATATATACCATTCACGGAAGGAGTATAATAAAATGCTTAATCAATATACTGAACATCAACCGACAACTTCAAATATTATTATTTTATTATACTCTTTAGGACTCGAACGTTAGTAAATATTTACTAAACGCTTTAAGTCCTATTTCTGTTTGAATGGGACTTGTAAACGTCCCAATAATATTGGGACGTTTTTTTATGTTTTATCTTTCAATTACTTATTTTTATTACTATAAAACATGATTAATCATTAAAATTTAC (double strand) [ilv promoter region (upstream of ilvD)]”, the binding result is “no binding”.
